Results from PubChem BioAssay AID720533 (National Center for Advancing Translational Sciences (NCATS), 2013).
The list shows a part of the results, in another mix than the full data. Results filed as inconclusive are left out. Where a call stands in place of a potency, no number is given. Calls of active or inactive are those of the source. Calls come from the whole dose curve; tested in HEK293 cells.

Test: qHTS for Inhibitors of binding or entry into cells for Lassa Virus
Details: Lassa virus pseudotyped entry inhibition, cell-based qHTS; series mostly up to 49.2 µM
Potency is the fitted concentration of half-maximal effect.

SMILES | Potency
O=[N+]([O-])CC(O)c1ccc([N+](=O)[O-])cc1 (centres undefined) | inactive
NC(=O)Nc1ccc([As](=O)(O)O)cc1 | inactive
CN(CCCl)Cc1cc(Cl)c(NC2=NCCN2)c(Cl)c1 | active: 35.5 µM
CCC(C)(OOC(C)(C)C)OOC(C)(C)C | inactive
CN(C(=O)Cc1ccccc1)[C@H]1CC[C@@]2(CCCO2)C[C@@H]1N1CCCC1 | inactive
Cc1cc([N+](=O)[O-])cc([N+](=O)[O-])c1O | active: 44.7 µM
O=C(OC1CN2CCC1CC2)c1ccccc1 (centres undefined) | inactive
CCNC(C)Cc1ccc2c(c1)OCO2 (centres undefined) | inactive
CC(=O)C1=CCCC2CCC1N2 (centres undefined) | inactive
